Compound potency records, mixed from different reports. Data source: NIAID ChemDB in PubChem.

All rows: tests in culture

MIC50, MIC90 and the like: level of inhibition, or share of isolates inhibited. Blank or dashed fields: not listed here. ECn is the concentration giving n% inhibition of infection, replication or growth. Conditions beyond the fields shown may differ between rows.

compound,method,agent,strain,read-out,conditions,value
O=C1OC(CSc2ccccc2)Cc2cn(-c3ccccc3)c3cccc1c23,visual reading,Mycobacterium spp.,MC2 6230,EC50,,>100 µg/mL
COc1cc2ccnc3c2c(c1OC(=O)c1ccc(C#N)cc1)N(C)C=C3,,Mycobacterium avium intracellulare,,EC50,,>15 µg/mL
CO[C@H]1/C=C/O[C@@]2(C)Oc3c(C)c(O)c4c(=O)c(c5oc6cc(N7CCN(CC(C)C)CC7)cc(=O)c6nc5c4c3=C2O)NC(=O)/C(C)=C\C=C\[C@H](C)[C@H](O)[C@@H](C)[C@@H](O)[C@@H](C)[C@H](OC(C)=O)[C@@H]1C,,Mycobacterium ulcerans,Isolate 5143,MIC,,0.025 µg/mL
CCCCCCCCCCCCCCCC#CC(=O)OCC(O)CO,,Mycobacterium smegmatis,mc2155,MIC99,,3 µM
O=C1OC(Cn2cc(-c3ccccc3F)nn2)Cc2cn(-c3ccccc3)c3cccc1c23,visual reading,Mycobacterium spp.,MC2 6230,EC50,,>100 µg/mL
Fc1cc(Br)ccc1Nc1nnc(-c2ccncc2)o1,broth dilution,Mycobacterium kansasii,My 6509/96,MIC100,14 d,>125 µM
CC(C)N=C(N)/N=C(\N)NOCCCOc1cc(Cl)c(Cl)cc1Cl,,Mycobacterium avium complex,2212,MIC,,16 µg/mL
CC(C)CCc1cn(CC2Cc3cn(-c4ccccc4)c4cccc(c34)C(=O)O2)nn1,visual reading,Mycobacterium spp.,MC2 6230,EC50,,>100 µg/mL
Nc1nc(N)c2c(n1)NC(c1ccc3c(c1)OCO3)CC(c1ccc(F)cc1)=N2,MTT / broth dilution / absorbance,Mycobacterium szulgai,MNT1100,MIC,clinical isolate,>32 µg/mL
C=C(C)COc1ccc(-c2n[nH]c(C(F)(F)F)c2-c2ccccc2)c(O)c1,visual reading,Mycobacterium marinum,,MIC,,>50 µg/mL
NCC[C@H](O)C(=O)N[C@@H]1C[C@H](N)[C@@H](O[C@H]2O[C@H](CN)[C@@H](O)[C@H](O)[C@H]2O)[C@H](O)[C@H]1O[C@H]1O[C@H](CO)[C@@H](O)[C@H](N)[C@H]1O,broth dilution,Mycobacterium bolletii,,MIC50,,8 µg/mL
O=C1OC(Cn2cc(-c3ccc(F)cc3F)nn2)Cc2cn(-c3ccccc3)c3cccc1c23,visual reading,Mycobacterium spp.,MC2 6230,EC50,,>100 µg/mL
COc1ccc(-c2n[nH]c(C)c2-c2ccc(Cl)cc2)c(O)c1,visual reading,Mycobacterium marinum,,MIC,,50 µg/mL
Cc1cccc(NC(=O)c2ccc3cc(O)ccc3c2)c1,broth dilution,Mycobacterium avium paratuberculosis,Clinical isolate CIT03 (MAP),MIC,,27 µM
O=C(NNC(=O)c1ccncc1)Nc1ccc(F)cc1Br,broth dilution,Mycobacterium kansasii,My 235/80,MIC100,14 d,>125 µM
CO[C@H]1/C=C/O[C@@]2(C)Oc3c(C)c(O)c4c(O)c(c(/C=N/N5CCN(C6CCCC6)CC5)c(O)c4c3C2=O)NC(=O)/C(C)=C\C=C\[C@H](C)[C@H](O)[C@@H](C)[C@@H](O)[C@@H](C)[C@H](OC(C)=O)[C@@H]1C,,Mycobacterium avium intracellulare,LYN,MIC,,0.5 µg/mL
CC[C@H]1OC(=O)[C@H](C)[C@@H](O[C@H]2C[C@@](C)(OC)[C@@H](O)[C@H](C)O2)[C@H](C)[C@@H](O[C@@H]2O[C@H](C)C[C@H](N(C)C)[C@H]2O)[C@](C)(O)C[C@@H](C)CN(C)[C@H](C)[C@@H](O)[C@]1(C)O,broth dilution / visual reading,Mycobacterium abscessus,Clinical isolate MR313292,MIC100,,8 µg/mL
COc1ccc(-c2n[nH]c(C(F)(F)F)c2-c2ccc(OC)c(OC)c2)c(O)c1,visual reading,Mycobacterium marinum,,MIC,,>50 µg/mL
COc1cccc(SCC2Cc3cn(-c4ccccc4)c4cccc(c34)C(=O)O2)c1,visual reading,Mycobacterium spp.,MC2 6230,EC50,,>100 µg/mL
CCCCCCSCCCCCCCCCCCCC#CC(=O)O,,Mycobacterium smegmatis,mc2651,MIC99,,141 µM
CC1(C)N=C(N)N=C(N)N1OCCCOc1cc(Cl)c(Cl)cc1Cl,,Mycobacterium avium complex,DW21,MIC,,2 µg/mL
Clc1ccc(Nc2nnc(-c3ccncc3)o2)cc1Cl,broth dilution,Mycobacterium kansasii,My 6509/96,MIC100,7 d,>125 µM
CCCCCCCCCCCCCC#CC(=O)OCCO,,Mycobacterium smegmatis,mc22389,MIC99,,42.3 µM
NNC(=O)c1ccncc1,MTT / broth dilution / absorbance,Mycobacterium szulgai,MNT1100,MIC,clinical isolate,>0.5 µg/mL
COc1ccc(NC(=O)NNC(=O)c2ccncc2)cc1,broth dilution,Mycobacterium kansasii,My 6509/96,MIC100,14 d,>125 µM
Oc1cc(OCc2c(F)cccc2Cl)ccc1-c1n[nH]c(C(F)(F)F)c1-c1ccc(Cl)cc1,visual reading,Mycobacterium marinum,,MIC,,>50 µg/mL
CSc1nc(N)c2c(n1)NC(c1ccccc1)CC(c1ccc3c(c1)OCO3)=N2,MTT / broth dilution / absorbance,Mycobacterium szulgai,MNT1100,MIC,clinical isolate,>32 µg/mL
CC(C)(C)c1ccc(NC(=O)NNC(=O)c2ccncc2)cc1,broth dilution,Mycobacterium kansasii,My 6509/96,MIC100,7 d,32 µM
CSc1nc(N)c2c(n1)NC(c1ccc(C(F)(F)F)cc1)CC(c1ccc3c(c1)OCO3)=N2,MTT / broth dilution / absorbance,Mycobacterium szulgai,MNT1100,MIC,clinical isolate,>32 µg/mL
CCCCCCCCCCCCCCCC#CC(=O)Oc1nccnc1C(=O)OCCC,,Mycobacterium smegmatis,mc2155,MIC99,,11.2 µM

For reference, 2 entries again:

compound,method,agent,strain,read-out,conditions,value
CCCCCCCCCCCCCCCC#CC(=O)OCC(O)CO,,Mycobacterium smegmatis,mc2155,MIC99,,3 µM
CO[C@H]1/C=C/O[C@@]2(C)Oc3c(C)c(O)c4c(=O)c(c5oc6cc(N7CCN(CC(C)C)CC7)cc(=O)c6nc5c4c3=C2O)NC(=O)/C(C)=C\C=C\[C@H](C)[C@H](O)[C@@H](C)[C@@H](O)[C@@H](C)[C@H](OC(C)=O)[C@@H]1C,,Mycobacterium ulcerans,Isolate 5143,MIC,,0.025 µg/mL